A mixed list of measured activities; the numbers were collected in NIAID ChemDB.

Shared fields: whole-cell or culture tests; organism: Herpes simplex virus 1; cells: VERO; measure: EC50

Conditions beyond the fields shown may differ between rows.

SMILES | strain or isolate | method | result
CC/C=C/C/C=C/C/C=C/CCCCCCCC(=O)OCC(CO[C@@H]1O[C@H](CO)[C@@H](O)[C@H](O)[C@H]1O)OC(=O)CCCCCCC/C=C/C/C=C/C/C=C/CC | KOS | plaque count | <50 µg/mL
O=c1[nH]c(=O)n([C@H]2C[C@H](O)[C@@H](CO)O2)cc1/C=C/Br | F-FIAC-C3 | plaque count | 210 µM
COC(=O)/C=C1/[C@@H](O[Si](C)(C)C(C)(C)C)[C@H](n2cc(C)c(=O)[nH]c2=O)O[C@@H]1CO[Si](C)(C)C(C)(C)C | - | plaque count | >35 µM
C=CCN=C1NN=C(C(C)N2C(=O)c3ccccc3C2=O)CS1 | VR733 | cytopathic effect | 77.04 µg/mL
Nc1nccc2c1nnn2[C@H]1C[C@H](O)[C@@H](CO)O1 | - | plaque count | >396 µM
CC(C)CC(C1=NNC(=Nc2ccccc2)SC1)N1C(=O)c2ccccc2C1=O | VR733 | cytopathic effect | >111 µg/mL
CC(=O)OCCOCn1c(-c2ccccc2)c(-c2ccccc2)c([N+](=O)[O-])c1-c1ccccc1 | - | plaque count | >300 µM
Nc1nc2c(ncn2CCC(O)CO)c(=O)[nH]1 | 7935-72 | plaque count | 4 µM
CC(=O)OCCOCn1c(-c2ccccc2)c(Br)c(-c2ccccc2)c1-c1ccccc1 | - | plaque count | >16 µM
Nc1nc2c(ncn2COC(CO)CO)c(=O)[nH]1 | TK- | cytopathic effect | 18 µg/mL
Nc1nccc2nnn([C@@H]3O[C@H](CO)[C@@H](O)[C@H]3O)c12 | - | plaque count | >398 µM
CCCCCCCCCCCCCC(=O)N[C@H](C)C(=O)N1C[C@@H](O)C[C@H]1C(=O)N[C@@H](CC(C)C)C(=O)N[C@H](C(=O)N[C@@H](CCC(N)=O)C(=O)N[C@@H](CC(C)C)C(=O)OC)C(C)C | - | ELISA | 9.3 µM
CSc1ncnc2c1ncn2[C@@H]1C[C@H](CO)[C@@H](O)[C@H]1O | HF | cytopathic effect | 59 µg/mL
CC(=O)OCCOCn1c(-c2ccccc2)c(N)c(C#N)c1-c1ccccc1 | - | plaque count | >300 µM
CC(C1=NNC(=Nc2ccc([N+](=O)[O-])cc2)SC1)N1C(=O)c2ccccc2C1=O | VR733 | cytopathic effect | >111 µg/mL
Nc1c(-c2ccccc2)c(-c2ccccc2)n(COCCO)c1-c1ccccc1 | - | plaque count | >42 µM
CCCCC/C=C\C/C=C\CCCCCCCC(=O)OCC(CO[C@@H]1O[C@H](CO)[C@H](O)[C@H](O)[C@H]1O)OC(=O)CCCCCCC/C=C\C/C=C\CCCCC | KOS | plaque count | <50 µg/mL
COc1cc(OC)c(NC(=S)Nc2ccc(NC(=O)c3ccccc3Cl)cc2)cc1Cl | - | ELISA | 0.125 µg/mL
CC1(C)C(OC2O[C@H](C(=O)O)[C@@H](O)[C@H](NC3[C@@H](O)[C@H](O)[C@@H](CO)O[C@@H]3O)[C@H]2OC2O[C@H](O)[C@@H](O)[C@H](O)[C@H]2C(=O)O)CC[C@@]2(C)C1CC[C@]1(C)C2C(=O)C=C2C3C[C@@](C)(C(=O)O)CC[C@]3(C)CC[C@]21C | - | cytopathic effect | 125 µg/mL
OCCOCn1c(-c2ccccc2)c(Br)c(Br)c1-c1ccccc1 | - | plaque count | >51 µM
COc1ccccc1C(=O)Nc1ccc(NC(=S)NCCc2cc3ccccc3o2)cc1 | - | ELISA | >10 µg/mL
CSc1nsc(-c2ccc(Cl)cc2Cl)c1C#N | F strain | plaque count | >8 µM
CCCCCCCCCCCC(=O)OC[C@H](CO[C@@H]1O[C@H](CO)[C@@H](O)[C@H](O)[C@H]1O)OC(=O)CCCCCCCCCCC | KOS | plaque count | 23 µg/mL
Nc1nccc2c1ncn2[C@@H]1O[C@H](CO)[C@@H](O)[C@H]1O | - | plaque count | 41 µM
Nc1nc2c(ncn2C[C@]2(CO)C[C@H]2CO)c(=O)[nH]1 | KOS | cytopathic effect | 1.3 µg/mL
CCCCCCCCCCCCCCCCCCCCCC(=O)OCC(CO[C@@H]1O[C@H](CO)[C@H](O)[C@H](O)[C@H]1O)OC(=O)CCCCCCCCCCCCC | KOS | plaque count | >50 µg/mL
CSc1nsc(-c2cc[n+](C)cc2)c1C#N | F strain | plaque count | >1000 µM
Nc1nc2c(ncn2COC(CO)CO)c(=O)[nH]1 | Shealey | plaque count | 3 µM
Nc1nc2c(ncn2COC(CO)CO)c(=O)[nH]1 | K1 | cytopathic effect | 0.17 µM
Nc1ccn([C@H]2O[C@@H](CO)[C@H](O)[C@H]2F)c(=O)n1 | F-FIAU-C1 | plaque count | 6.1 µM
NC1=NC2C(C=CN2CC(CO)CCO)C(=O)N1 | KOS | cytopathic effect | 5.3 µg/mL
Nc1nc2c(ncn2CC[C@H](O)CO)c(=O)[nH]1 | C42 (acyclovir-resistant) | plaque count | 180 µM
Cc1nc(N(C)C(=O)Cc2ccc(-c3ccccn3)cc2)sc1S(N)(=O)=O | KD3 | plaque count | 0.03 µM
CC(C1=NNC(=NCc2ccc(Cl)cc2)SC1)N1C(=O)c2ccccc2C1=O | VR733 | cytopathic effect | >111 µg/mL
COc1cc(NC(=O)c2ccccc2F)ccc1NC(=S)NC1=CC(Cl)C(C)(OC)C=C1 | - | ELISA | 0.05 µg/mL
Nc1nc(Cl)c2c(nnn2[C@@H]2O[C@H](CO)[C@@H](O)[C@H]2O)n1 | HF | cytopathic effect | 81 µg/mL
OC[C@H]1O[C@@H](n2nnc3c(Cl)nccc32)C[C@@H]1O | - | plaque count | >368 µM
Nc1nc2c(ncn2COCCO)c(=O)[nH]1 | - | plaque count | 0.2 µg/mL
O=C(O)P(=O)(O)O | F-FIAC-C3 | plaque count | 55 µM
CCCCCCCCCC(=O)NC(C)(C)C(=O)N1C[C@@H](O)C[C@H]1C(=O)N[C@@H](CC(C)C)C(=O)N[C@H](C(=O)N[C@@H](CCC(N)=O)C(=O)N[C@@H](CC(C)C)C(=O)OC)C(C)C | - | ELISA | 7 µM
Nc1nc2c(ncn2CC[C@@H](O)CO)c(=O)[nH]1 | C42 | plaque count | 2 µM
Nc1ncnc2c1nnn2[C@@H]1O[C@H](CO)[C@@H](O)[C@H]1O | - | plaque count | >4.5 µM
Nc1nc(=O)n([C@@H]2O[C@H](CO)[C@@H](O)[C@@H]2F)cc1I | F-FAU-C2 | plaque count | 3.8 µM
OC[C@H]1O[C@@H](n2nc3ccnc(Cl)c3n2)[C@H](O)[C@@H]1O | - | plaque count | >398 µM
CSc1nsc(-c2ccc[n+](C)c2)c1C#N | F strain | plaque count | >1250 µM
Nc1nc2c(ncn2COCCO)c(=O)[nH]1 | PAA-resistant | plaque count | 7.4 µg/mL
CC(C1=NN=C(N(C)C)SC1)N1C(=O)c2ccccc2C1=O | VR733 | cytopathic effect | >111 µg/mL
Nc1nc2c(ncn2C[C@]2(CO)C[C@H]2CO)c(=O)[nH]1 | TK- | cytopathic effect | ≥70 µg/mL
Nc1nc2c(ncn2CCC(CO)CO)c(=O)[nH]1 | K1 | cytopathic effect | 16.6 µM
OC[C@H]1C[C@@H](n2cnc3c(Cl)ncnc32)[C@H](O)[C@@H]1O | HF | cytopathic effect | 13.8 µg/mL
COC(=O)[C@H](CC(C)C)NC(=O)[C@H](CCC(N)=O)NC(=O)[C@@H](NC(=O)[C@H](CC(C)C)NC(=O)[C@@H]1C[C@H](O)CN1C(=O)C(C)(C)NC(=O)CCCCCCCCCCCCCCCO)C(C)C | - | ELISA | 2.3 µM
CCCCCCCCCCCC(=O)OCC(CO[C@@H]1O[C@H](CO)[C@@H](O)[C@H](O)[C@H]1O)OC(=O)CCCCCCCCCCC | KOS | plaque count | <50 µg/mL
CC(C)(C)[Si](C)(C)OC[C@H]1O[C@@H](n2ccc(=O)[nH]c2=O)[C@H](O[Si](C)(C)C(C)(C)C)[C@@]12O[C@H]2C(=O)NN | - | plaque count | 33 µM
Nc1ncnc2c1ncn2[C@@H]1C[C@H](CO)[C@@H](O)[C@@H]1O | F-FIAC-C3 | plaque count | 60 µM
Nc1nc2c(ncn2COCCO)c(=O)[nH]1 | F | plaque count | 0.5 µM
N#Cc1c([N+](=O)[O-])c(-c2ccccc2)n(COCCO)c1-c1ccccc1 | - | plaque count | >300 µM
CCCCCCCCCCCCCC(=O)NC(C)(C)C(=O)N1C[C@@H](O)CC1C(=O)N[C@@H](CC(C)C)C(=O)N[C@H](C(=O)N[C@@H](CCC(N)=O)C(=O)N[C@H](CO)CC(C)C)C(C)C | - | ELISA | 1.1 µM
COC(=O)/C=C1/[C@@H](O[Si](C)(C)C(C)(C)C)[C@H](n2cc(C)c(=O)n(C)c2=O)O[C@@H]1CO[Si](C)(C)C(C)(C)C | - | plaque count | >100 µM
NC1=NC2C(C=CN2CC(CO)CCO)C(=O)N1 | TK- | cytopathic effect | >100 µg/mL
COC(O)[C@@H]1OC12[C@@H](CO[Si](C)(C)C(C)(C)C)O[C@@H](n1cc(C)c(=O)[nH]c1=O)[C@@H]2O[Si](C)(C)C(C)(C)C | - | plaque count | >23 µM
Cc1cn([C@@H]2C[C@H](CO)[C@@H](O)C2)c(=O)[nH]c1=O | 377 | cytopathic effect | 0.8 µg/mL
Nc1nc2c(ncn2CCCCO)c(=O)[nH]1 | C42 (acyclovir-resistant) | plaque count | >200 µM
COC(=O)/C=C1/[C@@H](O[Si](C)(C)C(C)(C)C)[C@H](n2ccc(=O)[nH]c2=O)O[C@@H]1CO[Si](C)(C)C(C)(C)C | - | plaque count | >38 µM
CCCCC/C=C/C/C=C/CCCCCCCC(=O)NC(C)(C)C(=O)N1C[C@@H](O)C[C@H]1C(=O)N[C@@H](CC(C)C)C(=O)N[C@H](C(=O)N[C@@H](CCC(N)=O)C(=O)N[C@@H](CC(C)C)C(=O)OC)C(C)C | - | ELISA | 3.4 µM
CC(C)(C)[Si](C)(C)OC[C@H]1O[C@@H](n2ccc(=O)[nH]c2=O)[C@H](O[Si](C)(C)C(C)(C)C)[C@@]12O[C@H]2C(N)=O | - | plaque count | >8 µM
Nc1nccc2c1ncn2[C@@H]1C[C@H](CO)[C@@H](O)[C@H]1O | HF | cytopathic effect | 238 µg/mL
Nc1nc2c(ncn2CCC(CO)CO)c(=O)[nH]1 | - | cytopathic effect | 6.6 µg/mL
CCOC(=O)c1c(Br)c(-c2ccccc2)n(COCCOC(C)=O)c1-c1ccccc1 | - | plaque count | >47 µM
CSc1nsc(-c2ccncc2)c1C#N | F strain | plaque count | >2.5 µM

Blank or dashed fields: not listed here. ECn is the concentration giving n% inhibition of infection, replication or growth.